Results of unrelated studies side by side (data: NIAID ChemDB).

Shared fields: whole-cell or culture tests; organism: HIV-1; read-out: EC50

ECn is the concentration giving n% inhibition of infection, replication or growth. Blank or dashed fields: not listed here. Rows are shuffled and stem from different studies.

smiles | changes | cells | conditions | strain or isolate | read by | result
Cc1cn([C@H]2C[C@H](N=[N+]=[N-])[C@@H](CO)O2)c(=O)[nH]c1=O | - | C8166 | - | - | p24 / syncytia | 0.016 µM
Cc1ccc(S(=O)(=O)N(CC(C)C)C[C@@H](O)[C@H](Cc2ccccc2)NC(=O)O[C@H]2CO[C@H]3OCC[C@H]32)cc1 | 8374-P47 GS-8374-resistant | MT-2 | - | IIIB | ATP | 0.0135 µM
Cc1ccnc2c1NC(=O)c1cccnc1N2C1CC1 | RT-Y181C | CEM + CEM-SS | - | E BPTU-resistant (RT Y181C) | XTT | 1.9 µM
Cc1cn([C@H]2C=C[C@@H](CO)O2)c(=O)[nH]c1=O | RT-T69N L74I Q151M M184V | MT-4 | - | LZ-07.96 (HXB2 RT T69N L74I Q151M M184V) | cytopathic effect | 4.77 µM
C=C(C)C1Cc2cc(C(C)=O)c(O)cc2O1 | - | C8166 | - | - | p24 / syncytia | 16 µg/mL
S=C(NCCc1cccs1)Nc1ccc(Br)cn1 | - | HT4 + HeLa | - | H292-1 Clinical isolate | plaque count | 0.066 µM
COc1ccc(S(=O)(=O)N(CC(C)C)C[C@@H](O)[C@H](Cc2ccccc2)NC(=O)O[C@H]2CO[C@H]3OCC[C@H]32)cc1 | - | H9(HIV-1(IIIB)) + H9 | - | IIIB | virus yield | 0.001 µM
Nc1nc2c(ncn2[C@@H]2O[C@H](OCP(=O)(O)O)C=C2F)c(=O)[nH]1 | - | MT-2 | - | IIIB | ATP | 17.4 µM
CCCc1cc(=O)oc2c3c(c4c(c12)OC(C)(C)C=C4)O[C@@H](C)[C@H](C)[C@@H]3O | RT-L100I | CEM + CEM-SS | - | Dihydrocostatolide-resistant (RT-L100I) | XTT | >27 µM
Cc1[nH]c(=O)c(F)cc1Cn1cnc(C(F)(F)C(F)F)c(Oc2cc(C(F)F)cc(C#N)c2C)c1=O | - | MT4-GFP | - | - | GFP | 0.131 µM
Cn1c2ccccc2c2c1cc(C#N)c(=O)n2-c1ccc([N+](=O)[O-])cc1 | RT-V106I Y188L | HeLa | - | NNRTI-resistant | luciferase | 0.0069 µM
CCC(=O)c1ccc(F)c([C@@H]2C[C@@H]2NC(=O)Nc2ccc(C#N)cn2)c1O | - | PBMC | - | 1617-1 | absorbance | 0.0039 µM
Nc1ccc(CN2C(=O)N(Cc3ccc(N)cc3)[C@H](Cc3ccccc3)[C@H](O)[C@@H](O)[C@H]2Cc2ccccc2)cc1 | - | MT-2 | - | RF | hybridisation | <0.11 µM
Cc1cn([C@H]2C[C@H](N=[N+]=[N-])[C@@H](CO)O2)c(=O)[nH]c1=O | - | CEM + CEM-SS | - | RF | cytopathic effect / XTT | 0.002 µM
C=C(C)[C@@]1(O)[C@H](OC(=O)c2ccccc2)[C@@H]2[C@H](OC(C)=O)[C@@]3(C)O[C@@]4([C@@H]3OC(=O)c3ccccc3)[C@@H](OC(C)=O)[C@@H](C)C[C@H]4[C@@]2(O)[C@H](C)[C@@H]1O | - | C8166 | - | IIIB | cytopathic effect / syncytia | 2.04 µg/mL
O=c1[nH]cnc2c1ncn2[C@H]1CC[C@@H](CO)O1 | RT-L74V | HT4 + HT4 LacZ-1 | - | HXB2 | plaque count | 11.2 µM
CCN[C@H]1CO[C@@H]2OCC[C@H](OC(=O)N[C@@H](Cc3cccc(OC)c3)[C@H](O)CN(CC(C)C)S(=O)(=O)c3ccc4nc(NC(C)C)sc4c3)[C@@H]21 | L10I I54V K20R L24I V32I L33F M36I M46I I54M L63P K70Q V82I I84V L89M | MT-4 | - | NL4-3 | p24 / luminescence | 0.09 µM
O=C1N(Cc2cccc([N+](=O)[O-])c2)[C@H](Cc2ccccc2)[C@H](O)[C@@H](O)[C@@H](Cc2ccccc2)N1Cc1cccc([N+](=O)[O-])c1 | - | MT-2 | - | RF | hybridisation | <0.97 µM
CC(C)CN(C[C@@H](O)[C@H](Cc1ccccc1)NC(=O)[C@@H](NC(=O)CNCc1cccc(F)c1)C(C)(C)C)S(=O)(=O)c1cccc(N)c1 | - | MT-2 | - | IIIB | virus yield | <0.0046 µM
CC(C)CN(C[C@@H](O)[C@H](Cc1ccccc1)NC(=O)O[C@H]1CCOC1)S(=O)(=O)c1ccc(N)cc1 | L10F L33I M36I M46I I54V K55R I62V L63P A71V G73S V82T | MT-4 | - | NL4-3 | p24 / luminescence | >1 µM
N#CN=C1N(Cc2cccc([N+](=O)[O-])c2)[C@H](Cc2ccccc2)[C@H](O)[C@@H](O)[C@@H](Cc2ccccc2)N1Cc1cccc([N+](=O)[O-])c1 | - | MT-2 | - | RF | hybridisation | <17.7 µM
OC[C@@H]1[C@@H](O)[C@H](O)[C@@H](O)CN1CCCc1ccccc1 | - | MOLT-4 | - | IIIB | cell fusion | <5 µg/mL
COC(=O)N[C@H](C(=O)N[C@@H](Cc1ccccc1)[C@@H](O)CN(Cc1ccc(-c2ccccn2)cc1)NC(=O)[C@@H](NC(=O)OC)C(C)(C)C)C(C)(C)C | L10I L33I M36I M46I I54V K55R I62V L63P A71V G73S V82T L90M I93L | MT-4 | - | NL4-3 | p24 / luminescence | >1 µM
CC(=O)O[C@@]12C[C@@H](C)[C@@]3(O)[C@@H](C=C(CO)C[C@]4(O)C(=O)C(C)=C[C@@H]34)[C@@H]1C2(C)C | - | PBMC | - | KM018 | p24 / ELISA | 0.948 µM
Cc1cn([C@H]2C[C@H](N=[N+]=[N-])[C@@H](CO)O2)c(=O)[nH]c1=O | RT-T69N L74I Q151M M184V | MT-4 | - | LZ-07.96 (HXB2 RT T69N L74I Q151M M184V) | cytopathic effect | 0.252 µM
Cc1cc(C)c(Nc2ccnc(Nc3ccc(C#N)cc3)n2)c(C)c1 | - | PBMC | - | 92UG029 | absorbance | 0.0029 µM
C[C@H](Cn1cnc2c(N)ncnc21)OCP(=O)(O)O | - | PBMCs | 4 d | BR-92-025 (subtype C) | p24 / ELISA / antigen | 1.9 µM
C=C(C)[C@@]1(O)[C@H](OC(C)=O)[C@@H]2[C@H](OC(=O)c3ccccc3)[C@@]3(C)O[C@@]4([C@@H]3OC(=O)c3ccccc3)[C@@H](OC(C)=O)[C@@H](C)C[C@H]4[C@@]2(O)[C@H](C)[C@@H]1OC(C)=O | - | C8166 | - | IIIB | cytopathic effect / syncytia | 11.89 µg/mL
Cc1cn([C@H]2C[C@H](N=[N+]=[N-])[C@@H](CO)O2)c(=O)[nH]c1=O | RT-M41L E44D D67N T69D V118I M184V L210W T215Y | HeLa | - | NRTI resistant | luciferase | 0.897 µM
Cc1cn([C@H]2C=C[C@@H](CO)O2)c(=O)[nH]c1=O | - | MT-2 | - | IIIB | ATP | 4.8 µM
CC(=O)c1ccc(O)c(CC(O)C(C)(C)O)c1 | - | C8166 | - | - | p24 / syncytia | >8 µg/mL
CN[C@H]1CO[C@@H]2OCC[C@H](OC(=O)N[C@@H](Cc3cccc(OC)c3)[C@H](O)CN(CC(C)C)S(=O)(=O)c3ccc4nc(NC(C)C)sc4c3)[C@@H]21 | - | MT-4 | - | NL4-3 | p24 / luminescence | 0.03 µM
Nc1nc(=O)n([C@@H]2CS[C@H](CO)O2)cc1F | M41L/D67N/K70R/A98G/K101E/M184V/G190A/L210W/T215Y/K219E | MT-2 | - | Clinical isolate | recombinant virus assay | >13.3 µM
C[C@H](Cn1cnc2c(N)ncnc21)OCP(=O)(O)O | RT-A62T V118I M184V | HeLa | - | Recombinant | luciferase | 0.61 µM
CCc1cc(NCc2nc3c(Cl)ccc(Cl)c3o2)c(=O)[nH]c1C | - | CEM + CEM-SS | - | IIIB | cytopathic effect / XTT | 0.05 µM
COC(=O)N[C@H](C(=O)N[C@@H](Cc1ccccc1)[C@@H](O)CN(Cc1ccc(-c2ccccn2)cc1)NC(=O)[C@@H](NC(=O)OC)C(C)(C)C)C(C)(C)C | L441P | MT-2 | - | IIIB | p24 / ELISA | 0.0011 µM
Cc1cn([C@H]2C[C@H](N=[N+]=[N-])[C@@H](CO)O2)c(=O)[nH]c1=O | RT-L74V | CEM + CEM-SS | - | NL4-3 | XTT | 0.005 µM
Nc1ncnc2c1ncn2[C@@H]1O[C@H](OCP(=O)(O)O)C=C1F | - | PBMCs | - | - | p24 / ELISA / antigen | 8.5 µM
CC(C)CN(C[C@@H](O)[C@H](Cc1ccccc1)NC(=O)[C@@H](NC(=O)CNCc1cccc(F)c1)C(C)(C)C)S(=O)(=O)c1ccc(N)cc1 | - | PBMC | - | IIIB | virus yield | <0.04 µM
CCCc1cc(=O)oc2c3c(c4c(c12)OC(C)(C)C=C4)O[C@H](C)[C@@H](C)[C@@H]3O | - | PBMC | - | WEJO | RT activity | 0.03 µM
CCOC(=O)[C@H](C)N[P@](=O)(CO[C@@H]1C=C(F)[C@H](n2cnc3c(N)ncnc32)O1)Oc1ccccc1 | - | PBMCs | 4 d | LJM (subtype B) | p24 / ELISA / antigen | 0.027 µM
COc1cc(C(F)(F)F)cc(S(=O)(=O)c2cccc(N)c2C#N)c1 | RT-K103N Y181C | HeLa + HELA CD4+ | - | - | β-galactosidase | >50 µM
Cc1cc(S(N)(=O)=O)ccc1NC(=O)COc1ccc(Cl)cc1C(=O)c1cc(Cl)cc(C#N)c1 | RT-Y181C | MAGI | - | NNRTI-resistant (RT Y181C) | β-galactosidase | 0.0007 µM
O=C1N(Cc2cccc(CO)c2)[C@H](Cc2ccccc2)[C@H](O)[C@@H](O)[C@@H](Cc2ccccc2)N1Cc1cccc(CO)c1 | - | MT-2 | - | RF | hybridisation | <0.038 µM
O=c1[nH]cnc2c1ncn2[C@H]1CC[C@@H](CO)O1 | RT-M184V | HT4 + HT4 LacZ-1 | - | HXB2(184) (RT-M184V) | plaque count | 3.54 µM
Cc1cc(Br)cc(S(=O)(=O)c2cccc(N)c2C#N)c1 | RT-Y181C | HeLa + HELA CD4+ | - | - | β-galactosidase | 14 µM
N#CN=C1N(Cc2ccc([N+](=O)[O-])cc2)[C@H](Cc2ccccc2)[C@H](O)[C@@H](O)[C@@H](Cc2ccccc2)N1Cc1ccc([N+](=O)[O-])cc1 | - | MT-2 | - | RF | hybridisation | <19.3 µM
CCc1cc(NCc2nc3c(Cl)ccc(Cl)c3o2)c(=O)[nH]c1C | - | MT-4 | - | HXB2 | antigen | ~0.06 µM
C=C(C)[C@@]1(O)[C@H](OC(C)=O)[C@@H]2[C@H](OC(=O)c3ccccc3)[C@@]3(C)O[C@@]4([C@@H]3OC(C)=O)[C@@H](OC(C)=O)[C@@H](C)C[C@H]4[C@@]2(O)[C@H](C)[C@@H]1OC(=O)c1ccccc1 | - | C8166 | - | IIIB | cytopathic effect / syncytia | 51.04 µg/mL
O=c1[nH]cnc2c1ncn2[C@H]1CC[C@@H](CO)O1 | RT-T69N L74I Q151M M184V | MT-4 | - | LZ-07.96 (HXB2 RT T69N L74I Q151M M184V) | cytopathic effect | 125 µM
CC(C)=CCOc1cc(NC(=S)c2ccoc2C)ccc1Cl | A-17-resistant | TZM-bl | - | IIIB | luminescence | >10 µM
Cc1cc(Cl)cc(S(=O)(=O)c2cccc(N)c2C#N)c1 | RT-L100I K103N | HeLa + HELA CD4+ | - | - | β-galactosidase | 16 µM
Cc1cn([C@H]2C=C[C@@H](CO)O2)c(=O)[nH]c1=O | K65R M184V | MT-2 | - | Clinical isolate | recombinant virus assay | 0.576 µM
Cc1cc(O)cc(S(=O)(=O)c2cccc(N)c2C#N)c1 | RT-K103N V108I | HeLa + HELA CD4+ | - | - | β-galactosidase | 10 µM
O=C1N(Cc2ccc3ccccc3c2)[C@H](Cc2ccccc2)[C@H](O)[C@@H](O)[C@@H](Cc2ccccc2)N1Cc1ccc2ccccc2c1 | - | MT-2 | - | RF | hybridisation | <3.9 µM
Nc1nc(=O)n([C@@H]2CS[C@H](CO)O2)cc1F | RT-Y181C M184V | HT4 + HT4 LacZ-1 | - | HXB2 | plaque count | >500 µM
CCOP(=O)(COc1ccc(C[C@H](NC(=O)O[C@H]2CO[C@H]3OCC[C@H]32)[C@H](O)CN(CC(C)C)S(=O)(=O)c2ccc(OC)cc2)cc1)OCC | R41K | MT-2 | - | IIIB | p24 / ELISA | 0.008 µM
CCN[C@H]1CO[C@@H]2OCC[C@H](OC(=O)N[C@@H](Cc3ccccc3)[C@H](O)CN(CC(C)C)S(=O)(=O)c3ccc4nc(NC5CC5)sc4c3)[C@@H]21 | L10I I15V K20R L24I V32I M36I M46I L63P K70Q V82A I84V L89M | MT-4 | - | NL4-3 | p24 / luminescence | 0.0051 µM